According to paper PMC5127577, “Biochemical Characterization of Glutamate Racemase—A New Candidate Drug Target against Burkholderia cenocepacia Infections” (PLoS ONE, 2016):

Tests used:
[1] = tested on: BcGR; assay: Effect of compounds on BcGR oligomeric state (size exclusion chromatography, cross-linking, BN-PAGE); design: species or system Burkholderia cenocepacia J2315; details: for oligomeric state of BcGR: incubated with inhibitor in the absence of substrate; for molecular species of additional elution peak: with substrate D-Glu and inhibitor, gel filtration
[2] = tested on: BSA and lysozyme; assay: Size exclusion chromatography of control proteins with compounds (unspecific cross-linking check); details: 0.1 mM compound, with or without 10 mM D-Glu

Substance | oligomeric state of BcGR [1] | molecular species of additional elution peak [1] | oligomeric state of control proteins [2]
bis(2,4-bis(trichloromethyl)-1,3,5-triazapentadienato)-zinc(II) complex [(1)] | entirely in monomeric form | approximately 70 kDa | eluted as monomers
tris(2,4-bis(trichloromethyl)-1,3,5-triazapentadienate)-Mn(III) complex [(2)] | entirely in monomeric form | approximately 70 kDa | eluted as monomers
